Results of unrelated studies side by side (data: NIAID ChemDB).

Shared fields: tests in culture; organism: Mycobacterium tuberculosis

MIC50, MIC90 and the like: level of inhibition, or share of isolates inhibited.

Cc1c(Cn2cnc3c(C(=O)NCCF)cccc32)ncnc1N(C)C ; strain: H37Rv ; read-out: MIC80 ; method: visual reading / absorbance ; result: <0.39 µM
CCOC(=O)c1nnn(CC(=O)c2ccccc2)c1C(=O)OCC ; strain: H37Rv ; read-out: MIC ; method: agar ; result: 2.13 µg/mL
CCOC(=O)c1cc(-c2ccc(OC(F)(F)F)cc2)on1 ; strain: H37Rv ; read-out: MIC ; method: resazurin ; result: 2.2 µM
COC(=O)/C(=C/Cc1ccc(Cl)cc1Cl)CN=[N+]=[N-] ; strain: H37Rv ; read-out: MIC ; method: resazurin ; result: >128 µM
CC1CN(c2c(F)cc3c(=O)c(C(=O)O)cn(C4CC4)c3c2O)CCN1.O=S1CCCC1.[Cl][Rh]([Cl])[Cl] ; strain: ATCC 27294 ; read-out: zone ; method: agar diffusion ; tested at: 0.2 µg/mL ; result: 17 mm
CCOC(=O)c1cc(CNc2cc(F)ccc2F)on1 ; strain: H37Rv ; read-out: MIC ; method: low oxygen ; result: 15.2 µM
O=c1oc2ccccc2c(O)c1C1=CC(c2ccc(F)cc2)Sc2ccccc2N1 ; strain: H37Rv ; read-out: MIC ; method: resazurin ; result: <6.25 µg/mL
CC(=O)NC[C@H]1CN(c2ccc(N3CCN(Cc4ccc([N+](=O)[O-])s4)CC3)c(F)c2)C(=O)O1 ; strain: 59 isolates ; read-out: MIC50 ; result: 0.032 µg/mL
CCCCCCCCCCCC1N=C(N)N=C(N)N1c1cccc(Br)c1 ; strain: H37Rv ; read-out: MIC ; result: 6.25 µg/mL
CO[C@H]1/C=C/O[C@@]2(C)Oc3c(C)c(O)c4c(O)c(c(/C=N/N5CCN(C)CC5)c(O)c4c3C2=O)NC(=O)/C(C)=C\C=C\[C@H](C)[C@H](O)[C@@H](C)[C@@H](O)[C@@H](C)[C@H](OC(C)=O)[C@@H]1C ; strain: H37Rv ; read-out: MIC90 ; method: resazurin / absorbance ; result: 0.02 µg/mL
NC[C@H]1O[C@H](O[C@H]2[C@H](O)[C@@H](O[C@H]3O[C@H](CO)[C@@H](O)[C@H](N)[C@H]3O)[C@H](N)C[C@@H]2N)[C@H](O)[C@@H](O)[C@@H]1O ; strain: H37Rv ; read-out: MIC ; mutations: K204 kanamycin-resistant ; method: resazurin ; result: >10 µg/mL
O=C(O)c1cn(C2CC2)c2cc(N3CCNCC3)c(F)cc2c1=O ; strain: 30 isolates/HIV+ ; read-out: MIC50 ; result: >16 µg/mL
CCOC(=O)c1cc(CNc2ccc(F)cc2F)on1 ; strain: H37Rv ; read-out: MIC ; method: low oxygen ; result: 25.3 µM
Nc1nc2ncn(O)c2c(=O)[nH]1 ; strain: H37Rv ; read-out: MIC ; method: BACTEC ; result: ≥12.5 µg/mL
COc1ccc(C2C=C(c3c(O)c4ccccc4oc3=O)Nc3ccccc3S2)cc1 ; strain: H37Rv ; read-out: MIC ; method: resazurin ; result: <6.25 µg/mL
CCCc1c2c([nH]c(=O)c1C)C(=O)c1[nH]c(=O)c(C)c(CCC)c1C2=O ; strain: H37Rv ; read-out: MIC90 ; mutations: Streptomycin-resistant ; method: resazurin / fluorescence ; result: 0.17 µg/mL
Cc1cc(O)c2c(c1)C(=O)c1c(oc3c1c(=O)oc1cccc(C)c13)C2=O ; strain: H37Rv (ATCC 27294) ; read-out: MIC ; result: 4.88 µg/mL
COc1ccc(-c2nn(-c3ccccc3)cc2C2C3=C(NC(C)(c4cc(O)c(I)cc4Cl)NC3=O)Oc3c2c(C)nn3-c2ccccc2)cc1 ; strain: MTCC 300 ; read-out: zone ; method: agar diffusion / agar ; tested at: 1 mg/mL ; result: 3.6 mm
C=CCc1ccc(O)c(OC)c1 ; strain: H37Ra ; read-out: MIC ; method: absorbance ; result: 256 µg/mL
CCOC(=O)c1cc(CNc2cccc3ccccc23)on1 ; strain: H37Rv ; read-out: MIC ; method: low oxygen ; result: 7.6 µM
COc1ccc2nc(C)cc(Nc3ccc(Oc4ccc(Cl)c5ccccc45)c(Cl)c3)c2c1 ; strain: H37Rv ; read-out: MIC100 ; result: 1 µg/mL
C[C@H]1COc2c(N3CCN(C)CC3)c(F)cc3c(=O)c(C(=O)O)cn1c23 ; strain: 263 strains ; read-out: MIC ; result: 4 µg/mL
O=c1oc2ccccc2c(O)c1C1=Nc2ccccc2SC(c2ccccc2[N+](=O)[O-])C1 ; strain: H37Rv ; read-out: MIC ; method: resazurin ; result: <6.25 µg/mL
Cc1ccc(/C=C2\CN(C)CC3=C2NC(=S)NC3c2ccc(C)cc2)cc1 ; read-out: MIC99 ; method: agar ; result: 5.6 µM
CCOC(=O)c1cc(CNc2ccc(OC)nc2)on1 ; strain: H37Rv ; read-out: MIC ; result: 127.5 µM
Cc1nn(-c2ccccc2)c2c1C(c1cn(-c3ccccc3)nc1-c1ccc(Cl)cc1)C1=C(NC(C)(c3cc(O)ccc3Cl)NC1=O)O2 ; strain: MTCC 300 ; read-out: zone ; method: agar diffusion / agar ; tested at: 1 mg/mL ; result: 1.9 mm
O=c1oc2ccccc2c(O)c1C1=CC(c2cccc(Cl)c2)Sc2ccccc2N1 ; strain: H37Rv ; read-out: MIC ; method: resazurin ; result: <6.25 µg/mL
Cc1nn(-c2ccccc2)c2c1C(c1cn(-c3ccccc3)nc1-c1ccc(Cl)cc1)C1=C(NC(C)(c3cc(O)c(Cl)c(O)c3)NC1=O)O2 ; strain: MTCC 300 ; read-out: MIC ; method: agar diffusion / agar ; result: 1000 µg/mL
Cc1ccc2oc(=O)c(C3=Nc4ccccc4NC(c4cccc(Oc5ccccc5)c4)C3)c(O)c2c1 ; strain: H37Rv ; read-out: MIC ; method: resazurin ; result: >6.25 µg/mL
CC(=O)NC[C@H]1CN(c2ccc(N3CCOCC3)c(F)c2)C(=O)O1 ; strain: ss18b ; read-out: MIC ; method: resazurin ; result: 0.4 µg/mL
COC(=O)/C(=C/Cc1ccc(OC)cc1)CN=[N+]=[N-] ; strain: H37Rv ; read-out: MIC ; method: resazurin ; result: >128 µM
CN[C@@H]1[C@H](O[C@H]2[C@H](O[C@H]3[C@H](O)[C@@H](O)[C@H](N=C(N)N)[C@@H](O)[C@@H]3N=C(N)N)O[C@@H](C)[C@]2(O)C=O)O[C@@H](CO)[C@H](O)[C@H]1O ; strain: H37Rv ; read-out: MIC90 ; mutations: Isoniazid-resistant ; method: resazurin / fluorescence ; result: 0.46 µg/mL
CCOC(=O)c1cc(CNc2ccc(C(F)(F)F)cc2)on1 ; strain: H37Rv ; read-out: MIC ; method: low oxygen ; result: 9 µM
C1=C2CCCC/C=C\C=C\CCN3CC[C@@H]4[C@H](CCCCCC/C=C\C=C/CCN(C2)C[C@H]14)C3 ; strain: H37Rv (STR-resistant) ; read-out: MIC ; result: 6.25 µg/mL
COC(=O)/C(=C/Cc1cccc2ccccc12)CN=[N+]=[N-] ; strain: H37Rv ; read-out: MIC ; method: resazurin ; result: >128 µM
COc1cc(C2C=C(c3c(O)c4ccccc4oc3=O)Nc3ccccc3S2)cc(OC)c1OC ; strain: H37Rv ; read-out: MIC ; method: resazurin ; result: <6.25 µg/mL
NCC[C@H](O)C(=O)N[C@@H]1C[C@H](N)[C@@H](O[C@H]2O[C@H](CN)[C@@H](O)[C@H](O)[C@H]2O)[C@H](O)[C@H]1O[C@H]1O[C@H](CO)[C@@H](O)[C@H](N)[C@H]1O ; read-out: MIC ; result: 1 µg/mL
NC[C@H]1O[C@H](O[C@H]2[C@H](O)[C@@H](O[C@H]3O[C@H](CO)[C@@H](O)[C@H](N)[C@H]3O)[C@H](N)C[C@@H]2N)[C@H](O)[C@@H](O)[C@@H]1O ; strain: H37Rv ; read-out: MIC90 ; mutations: Isoniazid-resistant ; method: resazurin / fluorescence ; result: 0.95 µg/mL
Cc1ccc2sc(N(CCCn3ccnc3)C(=O)c3ccco3)nc2c1C ; strain: H37Rv ; read-out: MIC100 ; result: 1 µg/mL
CCOC(=O)c1cc(-c2ccc3cc(OC)ccc3c2)on1 ; strain: H37Rv ; read-out: MIC ; method: resazurin ; result: 0.9 µM

Repeating the first 6 entries:

structure | strain | read-out | mutations | method | tested at | result
Cc1c(Cn2cnc3c(C(=O)NCCF)cccc32)ncnc1N(C)C | H37Rv | MIC80 |  | visual reading / absorbance |  | <0.39 µM
CCOC(=O)c1nnn(CC(=O)c2ccccc2)c1C(=O)OCC | H37Rv | MIC |  | agar |  | 2.13 µg/mL
CCOC(=O)c1cc(-c2ccc(OC(F)(F)F)cc2)on1 | H37Rv | MIC |  | resazurin |  | 2.2 µM
COC(=O)/C(=C/Cc1ccc(Cl)cc1Cl)CN=[N+]=[N-] | H37Rv | MIC |  | resazurin |  | >128 µM
CC1CN(c2c(F)cc3c(=O)c(C(=O)O)cn(C4CC4)c3c2O)CCN1.O=S1CCCC1.[Cl][Rh]([Cl])[Cl] | ATCC 27294 | zone |  | agar diffusion | 0.2 µg/mL | 17 mm
CCOC(=O)c1cc(CNc2cc(F)ccc2F)on1 | H37Rv | MIC |  | low oxygen |  | 15.2 µM

Zones are inhibition diameters on agar. Conditions beyond the fields shown may differ between rows. An empty or dashed field is not shown.